Like-named read-outs stand apart in the source and are kept apart here.
Molecular target: dihydrolipoamide acyltransferase (DlaT) (Mycobacterium tuberculosis, UniProt P9WIS7)
Assay: DlaT inhibition (Dlat IC50); DTNB peroxidase assay with Lpd, DlaT and AhpD
Settings: read-out: Dlat IC50 category

Amino acid sequences for entries named in this document (tags omitted).
UniProt P9WIS7, whole entry: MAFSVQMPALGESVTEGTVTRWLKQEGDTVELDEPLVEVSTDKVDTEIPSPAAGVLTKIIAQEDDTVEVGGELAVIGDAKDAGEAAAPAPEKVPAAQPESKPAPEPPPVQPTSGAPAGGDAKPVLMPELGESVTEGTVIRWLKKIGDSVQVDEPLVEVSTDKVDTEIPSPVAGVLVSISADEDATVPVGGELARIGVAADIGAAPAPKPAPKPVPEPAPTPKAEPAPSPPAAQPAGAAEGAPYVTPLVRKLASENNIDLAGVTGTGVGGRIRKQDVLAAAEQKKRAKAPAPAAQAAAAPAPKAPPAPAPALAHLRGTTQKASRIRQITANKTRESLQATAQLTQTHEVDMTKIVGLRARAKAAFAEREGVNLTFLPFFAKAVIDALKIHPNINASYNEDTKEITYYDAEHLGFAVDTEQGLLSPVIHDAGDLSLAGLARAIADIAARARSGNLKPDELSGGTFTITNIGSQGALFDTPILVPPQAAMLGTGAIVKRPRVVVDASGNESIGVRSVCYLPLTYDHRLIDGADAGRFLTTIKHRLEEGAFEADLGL

Compound: O=C(O)C(c1ccccc1)N1C(=O)C(=Cc2ccc(Cc3ccccc3Cl)o2)SC1=S (stereo not drawn)
- IC50 (Table 15, Compounds O1 to O5): 11 to 40 µM

Compound: O=C(O)c1cccc(N2C(=O)C(=Cc3ccc(-c4ccc(N5CCOCC5)cc4)o3)SC2=S)c1
- IC50 (Table 1, Compounds A1 to A294): 11 to 40 µM

Compound: O=C(O)CCN1C(=O)C(=Cc2ccc(Oc3ccc(Cl)cc3)o2)SC1=S
- IC50 (Table 15, Compounds O1 to O5): 11 to 40 µM

Compound: O=C(O)c1cc(N2C(=O)C(=Cc3ccc(-c4cc5ccccc5s4)o3)SC2=S)ccc1O
- IC50: < 10 µM

Compound: O=C(O)C(c1ccccc1)N1C(=O)C(=Cc2ccc(Oc3ccc(Cl)cc3)o2)SC1=S (stereo not drawn)
- IC50 (Table 15, Compounds O1 to O5): < 10 µM

Compound: O=C(O)CN1C(=O)C(=Cc2ccc(-c3cc(C(=O)N4CCCCC4)c4cc(Br)ccc4n3)o2)SC1=S
- IC50 (Table 18, Compounds R2 to R6): 11 to 40 µM

Compound: O=C(O)CN1C(=O)C(=Cc2ccc(Cc3ccccc3Cl)o2)SC1=S
- IC50 (Table 15, Compounds O1 to O5): 11 to 40 µM

Compound: O=C(O)c1cccc(N2C(=O)C(=Cc3ccc(-c4cc(C(=O)N5CCCCC5)c5cc(Br)ccc5n4)o3)SC2=S)c1
- IC50 (Table 17, Compounds Q1 to Q9): 11 to 40 µM

Compound: O=C(O)CCCCCN1C(=O)C(=Cc2ccc(-c3cncnc3)o2)SC1=S
- IC50 (Table 18, Compounds R2 to R6): 11 to 40 µM

Compound: O=C(O)c1cccc(N2C(=O)C(=Cc3ccc(-c4cc(C(=O)N5CCCCC5)c5ccccc5n4)o3)SC2=S)c1
- IC50 (Table 17, Compounds Q1 to Q9): 11 to 40 µM

Compound: O=C(O)C(c1ccccc1)N1C(=O)C(=Cc2ccc(-c3cc4ccccc4s3)o2)SC1=S (stereo not drawn)
- IC50 (Table 10, Compounds J1 to J3): < 10 µM

Compound: O=C(O)CN1C(=O)C(=Cc2ccc(-c3cc4ccccc4s3)o2)SC1=S
- IC50 (Table 10, Compounds J1 to J3): < 10 µM

From patent publication US8338465B2, “Cyclic carboxylic acid rhodanine derivatives for the treatment and prevention of tuberculosis” (priority 2006, dated 2012)
